Compound potency records, mixed from different reports. Data source: NIAID ChemDB in PubChem.

Shared fields: whole-cell or culture tests; organism: Candida albicans

MIC50, MIC90 and the like: level of inhibition, or share of isolates inhibited.

Fc1ccc(C(CCn2ccnc2)Oc2ccc(Cl)cc2Cl)cc1 ; strain or isolate: 20 strains ; endpoint: MFC90 ; value: 8 µg/mL
CC1=C[C@@H](OC(=O)C(C)=C(C)C)[C@@]2(C)C(=O)C[C@H](C(C)C)[C@@]2(O)CC1 ; method: broth dilution ; endpoint: EC90 ; value: >50 µg/mL
O=C(Nc1cccc(Cn2ccnc2)c1)c1ccc([N+](=O)[O-])cc1[N+](=O)[O-] ; strain or isolate: 27 strains ; endpoint: Mean MIC ; value: 145 µg/mL
Cc1ccc(-c2nc3ccccc3c(=O)n2-c2ccc(C(=O)NN3C(=O)CSC3c3ccc(F)cc3)cc2)cc1 ; strain or isolate: MTCC 227 ; endpoint: MIC10 ; value: 250 µg/mL
Clc1ccc(C(Cn2ccnc2)OCc2csc3c(Cl)cccc23)c(Cl)c1 ; strain or isolate: 16 strains ; endpoint: MIC90 ; value: 1 µg/mL
O=C(Nc1ccccc1Cn1ccnc1)c1ccccc1 ; strain or isolate: 27 strains ; endpoint: Mean MIC ; value: 166.6 µg/mL
C=CCc1ccc(O)c(OC)c1 ; strain or isolate: 2642 ; method: turbidity ; endpoint: MIC90 ; value: 475 µg/mL
Clc1cc(Br)ccc1C=Nc1cccc(Cn2ccnc2)c1 ; strain or isolate: 27 strains ; endpoint: Mean MIC ; value: 131 µg/mL
CCC(C)CC(C)CCCCCCCCC(=O)NC1C[C@H](O)[C@@H](O)NC(=O)[C@@H]2C[C@@H](O)CN2C(=O)[C@H]([C@H](O)CC(N)=O)NC(=O)[C@H](C(O)[C@H](O)c2ccc(O)cc2)NC(=O)[C@@H]2C[C@@H](O)CN2C(=O)[C@H]([C@@H](C)O)NC1=O ; strain or isolate: MY1208 ; endpoint: MFC ; value: 2 µg/mL
Cc1c(Cn2ccnc2)cc(-c2ccc(Cl)cc2)n1-c1ccc(Cl)cc1 ; strain or isolate: 20 strains ; endpoint: Mean MIC ; value: 34 µg/mL
O=C(Nc1ccccc1Cn1ccnc1)c1ccccc1Cl ; strain or isolate: 27 strains ; endpoint: Mean MIC ; value: 50 µg/mL
COc1ccc(N2CCN(c3nc4ccc5oc(=O)ccc5c4s3)CC2)cc1 ; strain or isolate: MTCC 183 ; endpoint: MIC100 ; value: 25 µg/mL
Cc1c(O)cccc1C(=O)N[C@@H](CSc1ccccc1)[C@H](O)CN1C[C@H]2CCCC[C@H]2C[C@H]1C(=O)NC(C)(C)C ; strain or isolate: I87A ; endpoint: MIC ; value: >64 µg/mL
c1ccc(-c2ccc(C(c3ccccc3)n3ccnc3)cc2)cc1 ; strain or isolate: 16 strains ; endpoint: MIC90 ; value: 8 µg/mL
COc1cc(C(=O)CO[C@H]2CC(C)=CC[C@@]3(C)CC[C@@](O)(C(C)C)[C@H]23)ccc1O ; method: broth dilution ; endpoint: EC90 ; value: >50 µg/mL
CC(=O)N1CCN(c2nc3ccc4oc(=O)ccc4c3s2)CC1 ; strain or isolate: MTCC 183 ; endpoint: MIC100 ; value: 62.5 µg/mL
FC(F)(F)c1ccc(OC(CCn2ccnc2)c2ccccc2)cc1 ; strain or isolate: 20 strains ; endpoint: MFC90 ; value: 128 µg/mL
Cc1ccc(C(C)C)cc1O ; strain or isolate: ATCC 10231 ; endpoint: MLC ; value: 0.16–0.32 µg/mL
Clc1ccccc1COc1ccc(C(c2nccc3ccccc23)n2ccnc2)cc1.O=[N+]([O-])O ; strain or isolate: 17 strains ; endpoint: MIC90 ; value: ≥256 µg/mL
Cn1c(=O)ccc2c3sc(N4CCN(c5ccccc5Cl)CC4)nc3ccc21 ; strain or isolate: MTCC 183 ; endpoint: MIC100 ; value: 250 µg/mL
Cc1c(CN2CCN(C)CC2)cc(-c2ccccc2)n1-c1ccc(Cl)cc1 ; strain or isolate: 20 strains ; endpoint: Mean MIC ; value: 159.5 µg/mL
CC(C)CC(O)C(=O)O ; strain or isolate: ATCC 10231 ; method: broth dilution / visual reading ; endpoint: MFC100 ; value: 72000 µg/mL
CC(C)N=C(N)c1ccc2nc(-c3ccc4c(c3)Cc3cc(-c5nc6ccc(C(N)=NC(C)C)cc6[nH]5)ccc3-4)[nH]c2c1 ; strain or isolate: 21 strains ; endpoint: Geometric mean MFC ; value: 2.28 µg/mL
Cc1ccc(-c2ccc(Cl)cc2)n1-c1ccccc1 ; strain or isolate: 20 strains ; endpoint: Mean MIC ; value: >200 µg/mL
C[C@H]1[C@H](O)[C@@H](C)/C=C/C=C/C=C/C=C/C=C/C=C/C=C/[C@H](O[C@@H]2O[C@H](C)[C@@H](O)[C@H](N)[C@@H]2O)C[C@@H]2O[C@](O)(C[C@@H](O)C[C@@H](O)CC[C@H](O)[C@@H](O)C[C@@H](O)CC(=O)O[C@H]1C)C[C@H](O)[C@H]2C(=O)O ; strain or isolate: 55 strains (fluconazole-susceptible) ; endpoint: Geometric mean MIC ; value: <0.09 µg/mL
Fc1ccc(COc2ccc(C(c3ccc(-c4ccccc4)cc3)n3ccnc3)cc2)cc1.O=[N+]([O-])O ; strain or isolate: 17 strains ; endpoint: MIC90 ; value: ≥256 µg/mL
O=C(Nc1ccc(Cn2ccnc2)cc1)c1ccc(Cl)cc1 ; strain or isolate: 27 strains ; endpoint: Mean MIC ; value: 200 µg/mL
COc1ccccc1/C=C1\SC(c2ccc(F)cc2)N(NC(=O)c2ccc(-n3c(-c4ccc(C)cc4)nc4ccccc4c3=O)cc2)C1=O ; strain or isolate: MTCC 227 ; endpoint: MIC1000 ; value: 1000 µg/mL
Clc1ccc(C(CCn2ccnc2)Oc2ccc(Cl)cc2Cl)cc1 ; strain or isolate: 20 strains ; endpoint: MFC50 ; value: 4 µg/mL
C[C@@H](c1ncncc1F)[C@](O)(Cn1cncn1)c1ccc(F)cc1F ; strain or isolate: Isolate HR-Micro ; conditions: 24 h ; endpoint: MIC90 ; value: 0.09 µg/mL
Cc1c(CN2CCN(C)CC2)cc(-c2ccccc2)n1-c1ccccc1 ; strain or isolate: 20 strains ; endpoint: Mean MIC ; value: 255 µg/mL
Clc1cccc(Cl)c1COc1ccc(C(c2cccc3ccccc23)n2ccnc2)cc1.O=[N+]([O-])O ; strain or isolate: 17 strains ; endpoint: Mean MIC ; value: ≥256 µg/mL
COc1ccc(/C=N\O)cc1 ; method: broth dilution ; endpoint: MFC100 ; value: >6620 µM
Cc1ccc(-c2ccccc2)n1-c1ccccc1 ; strain or isolate: 20 strains ; endpoint: Mean MIC ; value: >200 µg/mL
Cc1ccc(C(C)C)cc1 ; strain or isolate: H37 ; endpoint: MLC ; value: >10 µg/mL
CC(C)[C@]1(O)CC[C@]2(C)C[C@@H]3O[C@]3(C)C[C@H](OCC(=O)c3ccc(O)cc3)[C@H]21 ; method: broth dilution ; endpoint: EC90 ; value: >50 µg/mL
O=C(Nc1ccc(Cn2ccnc2)cc1)c1ccc([N+](=O)[O-])cc1 ; strain or isolate: 27 strains ; endpoint: Mean MIC ; value: 160 µg/mL
Clc1ccccc1COc1ccc(C(c2ccc3ccccc3c2)n2ccnc2)cc1.O=[N+]([O-])O ; strain or isolate: 17 strains ; endpoint: Mean MIC ; value: ≥256 µg/mL
COc1cc(C(=O)CO[C@H]2C[C@](C)(O)C=C[C@@]3(C)CC[C@@](O)(C(C)C)[C@H]23)ccc1O ; method: broth dilution ; endpoint: EC90 ; value: >50 µg/mL
CCC(C)CC(C)CCCCCCCCC(=O)NC1CCCNC(=O)[C@@H]2[C@@H](O)[C@@H](C)CN2C(=O)[C@H]([C@H](O)CC(N)=O)NC(=O)[C@H](C(O)[C@H](O)c2ccc(O)cc2)NC(=O)[C@@H]2C[C@@H](O)CN2C(=O)[C@H]([C@@H](C)O)NC1=O ; strain or isolate: MY1208 ; endpoint: MFC ; value: 1 µg/mL
Fc1ccc(OC(CCn2ccnc2)c2ccccc2)c(F)c1 ; strain or isolate: 20 strains ; endpoint: MFC50 ; value: 64 µg/mL
CCC(C)n1ncn(-c2ccc(N3CCN(c4ccc(OC[C@H]5CO[C@](Cn6cncn6)(c6ccc(Cl)cc6Cl)O5)cc4)CC3)cc2)c1=O ; strain or isolate: 10 strains (fluconazole-resistant) ; endpoint: Geometric mean MIC ; value: 0.71 µg/mL
CC(C)C[C@H](N)C(=O)O ; strain or isolate: D 17 ; method: broth dilution ; endpoint: MFC100 ; value: >72000 µg/mL
CC1(C)O[C@H]2[C@H](O)[C@@H](N=[N+]=[N-])C=C(c3ccc(C=O)cc3)[C@H]2O1 ; strain or isolate: ATCC 10231 ; method: broth dilution / turbidity ; endpoint: inhibition ; dose: 15.6 µg/mL ; value: 60.12%
O=[N+]([O-])O.c1coc(C(c2nccc3ccccc23)n2ccnc2)c1 ; strain or isolate: 44 strains ; endpoint: MIC90 ; value: >256 µg/mL
Cn1c(=O)ccc2c3sc(N4CCN(C(c5ccccc5)c5ccc(Cl)cc5)CC4)nc3ccc21 ; strain or isolate: MTCC 183 ; endpoint: MIC100 ; value: 200 µg/mL
O=C(Nc1ccc(Cn2ccnc2)cc1)c1ccc([N+](=O)[O-])cc1[N+](=O)[O-] ; strain or isolate: 27 strains ; endpoint: Mean MIC ; value: 125 µg/mL
Cc1c(CNc2ccccc2)cc(-c2ccc(Cl)cc2)n1-c1ccccc1 ; strain or isolate: 20 strains ; endpoint: Mean MIC ; value: >200 µg/mL
Clc1ccc(COc2ccc(C(c3nccc4ccccc34)n3ccnc3)cc2)c(Cl)c1 ; strain or isolate: 16 strains ; endpoint: Mean MIC ; value: ≥256 µg/mL
CCC(C)CC(C)CCCCCCCCC(=O)N[C@H]1C[C@H](O)[C@@H](O)NC(=O)[C@@H]2[C@@H](O)[C@@H](O)CN2C(=O)[C@H]([C@H](O)CC(N)=O)NC(=O)[C@H](C(O)[C@H](O)c2ccc(O)cc2)NC(=O)[C@@H]2C[C@@H](O)CN2C(=O)[C@H]([C@@H](C)O)NC1=O ; strain or isolate: MY1055 ; endpoint: MFC ; value: 1 µg/mL
Clc1ccc(COc2ccc(C(c3ccc4ccccc4c3)n3ccnc3)cc2)cc1.O=[N+]([O-])O ; strain or isolate: 17 strains ; endpoint: MIC90 ; value: ≥256 µg/mL
O=c1ccc2c(ccc3nc(N4CCN(C(c5ccccc5)c5ccccc5)CC4)sc32)o1 ; strain or isolate: MTCC 183 ; endpoint: MIC100 ; value: 200 µg/mL

Inhibition is in % at the dose shown (toxicity tests: loss of growth or viability). Lines come from different laboratories, so protocols vary. ECn is the concentration giving n% inhibition of infection, replication or growth. Two numbers with a dash give a range or band.